Pooled drug test results. Numbers come from NIAID ChemDB, via PubChem.

Shared fields: tests in culture; species: Aspergillus clavatus

An empty or dashed field is not shown.

| structure | method | strain | dose | measure | result |
|---|---|---|---|---|---|
| Clc1cccc(N2CCN(c3nc(Cl)nc(NC4CC4)n3)CC2)c1 | agar | MTCC 1323 |  | MIC | 200 µg/mL |
| CC(=O)N1CCN(c2nc(Nc3ccc(C#N)c(C(F)(F)F)c3)nc(Oc3cccc4cccnc34)n2)CC1 | agar diffusion / agar | MTCC 1323 | 100 µg/disc | zone | 27 mm |
| COc1cc(/C=C2/SC(=O)N(CC(=O)Nc3nc4ccc(SC#N)cc4s3)C2=O)ccc1O | broth dilution / visual reading | MTCC 1323 |  | MIC | 500 µg/mL |
| CCCCOc1ccc(-c2csc(NS(=O)(=O)C3C(=O)ONN3c3ccc(C)cc3)n2)cc1 | agar diffusion | MTCC323 | 250 µg/mL | zone | 23 mm |
| Clc1nc(NC2CC2)nc(N2CCN(c3ccccc3)CC2)n1 | agar | MTCC 1323 |  | MIC | 50 µg/mL |
| Cc1ccc(-c2csc(NS(=O)(=O)C3C(=O)ONN3c3ccc(C)cc3)n2)cc1 | agar diffusion | MTCC323 | 250 µg/mL | zone | 17 mm |
| FC(F)(F)c1cccc(N2CCN(c3nc(NCCNc4ncnc5c(Br)cc(Br)cc45)nc(NC4CC4)n3)CC2)c1 | agar | MTCC 1323 |  | MIC | 50 µg/mL |
| COC1=CC(=O)C[C@@H](C)[C@]12Oc1c(Cl)c(OC)cc(OC)c1C2=O | agar diffusion | MTCC323 | 250 µg/mL | zone | 24 mm |
| COc1cc(/C=C2/SC(=O)N(CC(=O)Nc3nc4ccc(SC#N)cc4s3)C2=O)cc(OC)c1OC | broth dilution / visual reading | MTCC 1323 |  | MIC | >1000 µg/mL |
| CC(C)N1CCN(c2nc(Nc3ccc(C#N)c(C(F)(F)F)c3)nc(Oc3cccc4cccnc34)n2)CC1 | agar diffusion / agar | MTCC 1323 | 100 µg/disc | zone | 21 mm |
| N#CSc1ccc2nc(NC(=O)CN3C(=O)S/C(=C/c4ccc(Cl)cc4)C3=O)sc2c1 | broth dilution / visual reading | MTCC 1323 |  | MIC | >1000 µg/mL |
| COc1ccc(CN2CCN(c3nc(NCCNc4ncnc5c(Br)cc(Br)cc45)nc(NC4CC4)n3)CC2)c(OC)c1OC | agar | MTCC 1323 |  | MIC | 12.5 µg/mL |
| N#CSc1ccc2nc(NC(=O)CN3C(=O)S/C(=C/c4ccccc4)C3=O)sc2c1 | broth dilution / visual reading | MTCC 1323 |  | MIC | >1000 µg/mL |
| CCN1CCN(c2nc(Nc3ccc(C#N)c(C(F)(F)F)c3)nc(Oc3ccnc4ccccc34)n2)CC1 | agar | MTCC 1323 | 100 µg/mL | zone | <10 mm |
| N#Cc1ccc(Nc2nc(Oc3cccc4cccnc34)nc(N3CCN(c4ccccc4)CC3)n2)cc1C(F)(F)F | agar diffusion / agar | MTCC 1323 | 100 µg/disc | zone | 20 mm |
| COc1ccc(-c2nc3ccccc3c(=O)n2-c2ccc(NS(=O)(=O)C3C(=O)ONN3c3ccc(C)cc3)cc2)cc1 | agar diffusion | MTCC323 | 250 µg/mL | zone | 23 mm |
| N#CSc1ccc2nc(NC(=O)CCl)sc2c1 | broth dilution / visual reading | MTCC 1323 |  | MIC | 500 µg/mL |

For reference, 2 entries again:

structure	method	strain	dose	measure	result
N#CSc1ccc2nc(NC(=O)CN3C(=O)S/C(=C/c4ccccc4)C3=O)sc2c1	broth dilution / visual reading	MTCC 1323		MIC	>1000 µg/mL
CC(C)N1CCN(c2nc(Nc3ccc(C#N)c(C(F)(F)F)c3)nc(Oc3cccc4cccnc34)n2)CC1	agar diffusion / agar	MTCC 1323	100 µg/disc	zone	21 mm

Lines come from different laboratories, so protocols vary. Zone: diameter of growth inhibition.